Reference: patent US11604185B2 (priority 2007, dated 2023)

Amino acid sequences for entries named in this document (tags omitted). Residues count along the entry.
UniProt P0DPI1, whole entry, looked up: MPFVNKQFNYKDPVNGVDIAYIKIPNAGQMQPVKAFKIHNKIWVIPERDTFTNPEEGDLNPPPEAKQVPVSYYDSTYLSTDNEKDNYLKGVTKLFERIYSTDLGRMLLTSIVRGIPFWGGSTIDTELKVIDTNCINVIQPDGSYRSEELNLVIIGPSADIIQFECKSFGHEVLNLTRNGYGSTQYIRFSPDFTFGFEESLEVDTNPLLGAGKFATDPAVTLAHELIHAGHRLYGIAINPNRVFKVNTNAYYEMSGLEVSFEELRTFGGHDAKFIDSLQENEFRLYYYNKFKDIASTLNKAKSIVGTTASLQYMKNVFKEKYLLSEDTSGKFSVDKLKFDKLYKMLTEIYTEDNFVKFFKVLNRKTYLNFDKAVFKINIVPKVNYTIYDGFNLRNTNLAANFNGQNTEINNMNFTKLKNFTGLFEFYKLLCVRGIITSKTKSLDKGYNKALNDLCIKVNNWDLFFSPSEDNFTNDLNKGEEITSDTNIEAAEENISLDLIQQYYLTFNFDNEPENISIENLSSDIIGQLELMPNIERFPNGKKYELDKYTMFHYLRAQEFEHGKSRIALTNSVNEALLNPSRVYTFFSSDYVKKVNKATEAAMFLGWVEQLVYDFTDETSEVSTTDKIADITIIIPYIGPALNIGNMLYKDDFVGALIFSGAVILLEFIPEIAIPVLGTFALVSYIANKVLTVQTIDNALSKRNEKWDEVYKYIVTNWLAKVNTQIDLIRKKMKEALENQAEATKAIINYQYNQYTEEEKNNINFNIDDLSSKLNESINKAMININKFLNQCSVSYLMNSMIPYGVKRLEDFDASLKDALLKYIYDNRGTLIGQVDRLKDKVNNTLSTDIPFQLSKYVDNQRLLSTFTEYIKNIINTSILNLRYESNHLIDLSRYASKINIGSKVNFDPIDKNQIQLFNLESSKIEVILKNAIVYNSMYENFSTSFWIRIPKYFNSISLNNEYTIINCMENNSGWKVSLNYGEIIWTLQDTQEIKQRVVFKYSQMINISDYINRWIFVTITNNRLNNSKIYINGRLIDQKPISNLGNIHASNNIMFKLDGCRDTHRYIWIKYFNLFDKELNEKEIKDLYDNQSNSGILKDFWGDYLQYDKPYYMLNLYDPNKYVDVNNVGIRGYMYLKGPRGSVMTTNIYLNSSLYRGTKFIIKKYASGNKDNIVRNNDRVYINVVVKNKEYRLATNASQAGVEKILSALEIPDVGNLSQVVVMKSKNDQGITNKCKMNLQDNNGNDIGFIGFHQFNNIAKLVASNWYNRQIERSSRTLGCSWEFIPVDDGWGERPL
UniProt P00761, 9-231 limits assumed: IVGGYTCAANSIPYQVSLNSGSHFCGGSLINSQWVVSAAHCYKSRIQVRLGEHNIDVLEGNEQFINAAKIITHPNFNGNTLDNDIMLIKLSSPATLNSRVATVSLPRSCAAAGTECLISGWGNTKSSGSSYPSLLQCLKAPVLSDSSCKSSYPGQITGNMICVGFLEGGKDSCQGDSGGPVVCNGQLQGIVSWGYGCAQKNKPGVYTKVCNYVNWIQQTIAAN
UniProt P00800, 233-548 limits assumed: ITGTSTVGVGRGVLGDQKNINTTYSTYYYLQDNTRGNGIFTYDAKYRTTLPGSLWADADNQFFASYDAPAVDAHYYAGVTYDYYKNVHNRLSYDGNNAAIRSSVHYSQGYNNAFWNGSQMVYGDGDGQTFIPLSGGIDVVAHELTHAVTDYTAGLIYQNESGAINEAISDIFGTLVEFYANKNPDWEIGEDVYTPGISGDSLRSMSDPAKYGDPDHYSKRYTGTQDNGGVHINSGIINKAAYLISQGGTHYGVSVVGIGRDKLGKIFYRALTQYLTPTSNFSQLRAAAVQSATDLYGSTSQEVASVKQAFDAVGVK
UniProt P06873, 106-384 limits assumed: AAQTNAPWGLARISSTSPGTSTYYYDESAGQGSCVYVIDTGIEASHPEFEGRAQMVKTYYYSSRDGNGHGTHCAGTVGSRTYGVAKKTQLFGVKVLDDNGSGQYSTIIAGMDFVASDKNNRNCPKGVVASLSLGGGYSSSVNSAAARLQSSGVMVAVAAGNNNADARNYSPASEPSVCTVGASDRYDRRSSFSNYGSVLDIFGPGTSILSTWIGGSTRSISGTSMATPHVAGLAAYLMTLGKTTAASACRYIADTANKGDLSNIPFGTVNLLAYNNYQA

Assays:
BoNT/A LC = BoNT/A LC (Clostridium botulinum, UniProt P0DPI1); assay: BoNT/B substrate cleavage by recombinant BoNT/A LC; conditions: 10 nM recombinant LC/A, 37° C.
Trypsin = Trypsin (Sus scrofa, UniProt P00761)
Thermolysin = Thermolysin (Bacillus thermoproteolyticus, UniProt P00800)
Proteinase K = Proteinase K (Parengyodontium album, UniProt P06873)
BoNT/A = BoNT/A (Clostridium botulinum, UniProt P0DPI1); assay: Michaelis-Menten kinetics of cleavable and control peptides with BoNT/A; conditions: BoNT/A 10 nM, 2 hours

Compound | cleavage by BoNT/A LC (BoNT/A LC) | Km (Trypsin) | Km (Thermolysin) | Km (Proteinase K) | Km (BoNT/A)
K[5-Fam]LSELDDRADALQAGASQFETSAAKLKRK[DABCYL]-amide | did not cleave | – | – | – | –
CCCC[C@H](NC(=O)[C@H](CCCCNC(=O)c1ccc(N=Nc2ccc(N(C)C)cc2)cc1)NC(=O)[C@@H](NC(=O)[C@H](C)NC(=O)[C@H](CCCNC(=N)N)NC(=O)[C@H](CCC(N)=O)NC(=O)[C@H](CC(N)=O)NC(=O)[C@H](C)NC(=O)[C@H](CCC(=O)O)NC(=O)[C@H](CC(=O)O)NC(=O)[C@@H](NC(=O)[C@H](CCCNC(=N)N)NC(=O)[C@@H](NC(=O)c1ccc2c(c1)C(=O)OC21c2ccc(O)cc2Oc2cc(O)ccc21)[C@@H](C)O)[C@@H](C)CC)[C@@H](C)O)C(N)=O | – | 9.67 µM | 8.16 µM | 5.46 µM | 4.99 µM
CCCC[C@H](NC(=O)[C@H](CCCCNC(=O)c1ccc(N=Nc2ccc(N(C)C)cc2)cc1)NC(=O)[C@@H](NC(=O)[C@H](C)NC(=O)[C@H](CCCNC(=N)N)NC(=O)[C@H](CCC(N)=O)NC(=O)[C@H](CC(N)=O)NC(=O)[C@H](C)NC(=O)[C@H](CCC(=O)O)NC(=O)[C@H](CC(=O)O)NC(=O)[C@@H](NC(=O)[C@H](CCCNC(=N)N)NC(=O)[C@@H](NC(=O)Cc1c(C)c2ccc(O)cc2oc1=O)[C@@H](C)O)[C@@H](C)CC)[C@@H](C)O)C(N)=O | – | 3.4 µM | 12.7 µM | 4.48 µM | 2.62 µM
